Source: publication PMC10892871 (Viruses, 2024)

How the values were obtained:
[1] = test system: Omicron BQ.1.1 SARS-CoV-2 variant; assay type: cell-based
[2] = test system: wild type B.1 SARS-CoV-2; assay type: cell-based

Substance | IC50 vs. BQ.1.1 Mean ± SD [1] | IC50 [2] [µg/mL] | IC50 vs. B.1 Mean ± SD [2] [µg/mL]
cilgavimab | active only against the wild type B.1 |  | 
bebtelovimab | active only against the wild type B.1 | 0.03 ± 0.01 | 0.033 ± 0.007
tixagevimab | active only against the wild type B.1 |  | 
